A mixed list of measured activities; the numbers were collected in NIAID ChemDB.

Shared fields: toxicity to cultured cells; cell line: MT-4; read-out: CC50

Conditions beyond the fields shown may differ between rows.

compound,read by,result
Cc1cn([C@H]2C[C@H](O[Si](C)(C)C(C)(C)C)[C@@H](CO)O2)c(=O)[nH]c1=O,,34 µg/mL
CN(C)c1cc2c(=O)c(C(=O)O)cn(C)c2cc1N1CCN(c2ccccn2)CC1,MTT,19.48 µM
CN(C)c1ccc(/C=C2/SC(=O)N(CC(=O)Nc3nc4ccc(SC#N)cc4s3)C2=O)cc1,MTT,61 µM
CN1C=C(C(=O)O)Cc2ccc(N3CCN(c4nc5ccccc5s4)CC3)nc21,MTT,26.33 µM
CC(=O)Nc1cnc(Oc2c(C)cc(Br)cc2C)nc1Nc1ccc(C#N)cc1,MTT,147 µM
COc1cc(/C=C/C(=O)c2c(O)c3cc(Cl)c(C)cc3oc2=O)ccc1O,,6.64 µg/mL
Oc1ccc(-c2nnc3sc(-c4cccnc4)nn23)c(Cl)c1Cl,MTT,80.05 µg/mL
COc1cc2c(cc1Cc1cccc(Cl)c1F)c(=O)c(C(=O)O)cn2[C@H](CO)C(C)C,,24 µM
CC(C)CCC[C@@H](C)[C@H]1CC[C@H]2[C@@H]3CC[C@H]4C[C@@H](CCC=C(c5cc(Cl)c(O)c(C(=O)O)c5)c5cc(Cl)c(O)c(C(=O)O)c5)CC[C@]4(C)[C@H]3CC[C@]12C,,>125 µM
CC(C)[C@H](NC(=O)OCc1cncs1)C(=O)N[C@@H](Cc1ccccc1)[C@H](O)CN1CCN(Cc2ccccc2)C[C@H]1C(=O)NC(C)(C)C,,55.42 µM
COC(=O)N[C@H](C(=O)NN(CC[C@@]1(Cc2ccccc2)C(=O)N(C2c3ccccc3C[C@H]2O)C[C@@H]1O)Cc1ccc(Br)cc1)C(C)(C)C,XTT,31 µM
CC(=O)Nc1cnc(Oc2c(Cl)cccc2Cl)nc1Nc1ccc(C#N)cc1,MTT,193 µM
Nn1c(-c2cccc(Br)c2)n[nH]c1=S,,75.4 µg/mL
Cc1cc2oc(=O)c(C(=O)/C=C/c3ccccc3[N+](=O)[O-])c(O)c2cc1Cl,,6.94 µg/mL
Oc1ccc(-c2nnc3sc(-c4cccs4)nn23)c(Cl)c1Cl,MTT,92.7 µg/mL
Cc1ccccc1C(O)(c1c(C)c(=O)[nH]c(=O)n1COCc1ccccc1)C(C)C,MTT,123 µM
CCCCC1(CCc2cccc(NS(=O)(=O)c3ccc(C)cc3)c2)COC(=O)C(C(CC)c2cccc(NS(=O)(=O)c3ccc(C)cc3)c2)=C1O,,66.6 µM
COC(=O)N[C@H](C(=O)NN(CC[C@@]1(Cc2ccccc2)C(=O)N(C2c3ccccc3C[C@H]2O)C[C@@H]1O)Cc1ccc(-c2ccncc2)cc1)C(C)(C)C,XTT,31 µM
Clc1ccc(-c2nnc3sc(-c4cnccn4)nn23)cc1Cl,,2.11 µg/mL
Cc1c(C(C)c2ccc(F)cc2)n(COCc2ccccc2)c(=O)[nH]c1=O,MTT,>339.3 µM
CC1=C(C(=O)Nc2ccc(F)c(Cl)c2)C2=NN=C(N)C2C(=O)N1,MTT,19.4 µg/mL
Nc1cc2c(=O)c(C(=O)O)cn(C3CC3)c2cc1N1CCN(c2ccc3ccccc3n2)CC1,MTT,0.2 µM
CC1=C(C(=O)Nc2ccc(Cl)c(Cl)c2)C2=NN=C(N)C2C(=O)N1,MTT,62.9 µg/mL
CCCCC1(CCc2cccc(NS(=O)(=O)c3ccc(OC)cc3)c2)COC(=O)C(C(CC)c2cccc(NS(=O)(=O)c3ccc(OC)cc3)c2)=C1O,,29.9 µM
Cc1ccc(C(C)c2c(C(C)C)c(=O)[nH]c(=O)n2COCc2ccccc2)cc1,MTT,33.43 µM
CC(C)[C@H](NC(=O)CCc1nc2ccccc2[nH]1)C(=O)N[C@@H](Cc1ccccc1)[C@@H](O)[C@@H](NCc1ccccc1)C(=O)N[C@H](C(=O)NCc1ccccc1)C(C)C,,14.8 µM
C[C@H](CCC=C(c1cc(Cl)c(O)c(C(=O)O)c1)c1cc(Cl)c(O)c(C(=O)O)c1)[C@H]1CC[C@H]2[C@@H]3CC[C@@H]4CCCC[C@]4(C)[C@H]3CC[C@]12C,,31.4 µM
Cc1cc(Br)cc(C)c1Oc1ncc(N)c(Nc2ccc(C#N)cc2)n1,MTT,31 µM
Cc1ccc(C(C)C)c2oc(=O)c(C(=O)/C=C/c3ccccc3[N+](=O)[O-])c(O)c12,,2.81 µg/mL
COC(=O)N[C@H](C(=O)NN(CC[C@@]1(Cc2ccccc2)C(=O)N(C2c3ccccc3C[C@H]2O[Si](C)(C)C(C)(C)C)C[C@@H]1O[Si](C)(C)C(C)(C)C)Cc1ccc(Br)cc1)C(C)(C)C,XTT,>50 µM
O=C(NCc1ccc(F)cc1)c1nc(N2CCCCS2(=O)=O)c2cccnc2c1O,,5 µM
COC(=O)N[C@H](C(=O)NN(CC[C@@]1(Cc2ccccc2)C(=O)N(C2c3ccccc3C[C@H]2O)C[C@H]1O)Cc1ccc(-c2cccnc2)cc1)C(C)(C)C,XTT,31 µM
Nc1ccc(-c2n[nH]c(=S)n2N)cc1,,12 µg/mL
O=C(O)c1cn(C2CC2)c2nc(N3CCN(c4nc5ccccc5s4)CC3)ccc2c1=O,MTT,1.2 µM
COc1ccc(/C=C/C(=O)c2c(O)c3c(C)ccc(C(C)C)c3oc2=O)cc1OC,,58.15 µg/mL
C=C(c1ccc(OC)cc1)c1c(C)c(=O)[nH]c(=O)n1COCc1ccccc1,MTT,131 µM
O=C(O)c1cn(C2CC2)c2nc(N3CCN(c4ccccn4)CC3)ccc2c1=O,MTT,>8.32 µM
O=S(=O)(O)O.OCC1OC(OC2C(O)C(CO)OC(OC3C(O)C(CO)OC(OC4C(O)C(O)OC(CO)C4O)C3O)C2O)C(O)C(O)C1O,,198 µg/mL
COc1ccc(/C=C2/SC(=O)N(CC(=O)Nc3nc4ccc(SC#N)cc4s3)C2=O)cc1,MTT,>100 µM
C=CCn1c(=O)c(C)cn([C@@H]2O[C@H](CO[Si](C)(C)C(C)(C)C)C3(OS(=O)(=O)C=C3N)[C@H]2O)c1=O,,32 µg/mL
N#CSc1ccc2nc(NC(=O)CN3C(=O)S/C(=C/c4cccc(Br)c4)C3=O)sc2c1,MTT,73 µM
Clc1ccc(-c2nnc3n2N=C(c2ccccc2)CS3)cc1Cl,,1.97 µg/mL
CCCCC1(CCc2cccc(NS(=O)(=O)c3ccccc3)c2)COC(=O)C(C(CC)c2cccc(NS(=O)(=O)c3ccccc3)c2)=C1O,,58.8 µM
CC(C)(C)[Si](C)(C)OC[C@H]1O[C@@H](n2ccc(=O)[nH]c2=O)[C@H](O[Si](C)(C)C(C)(C)C)C12OS(=O)(=O)C=C2N,,3.1 µg/mL
Cc1ccc(C(O)(c2c(C)c(=O)[nH]c(=O)n2COCc2ccccc2)C(C)C)cc1,MTT,155 µM
CC1=C(C(=O)Nc2ccc(C)cc2)C2=NN=C(N)C2C(=O)N1,MTT,>100 µg/mL
Cc1cc2oc(=O)c(C(=O)/C=C/c3cccc([N+](=O)[O-])c3)c(O)c2cc1Cl,,66.5 µg/mL
CCC(c1ccc(C)cc1)c1c(C)c(=O)[nH]c(=O)n1COCc1ccccc1,MTT,43.7 µM
O=S(=O)(O)O.OCC(O)C(O)C(OC1OC(CO)C(O)C(OC2OC(CO)C(O)C(OC3OC(CO)C(O)C(OC4OC(CO)C(O)C(OC5OC(CO)C(O)C(O)C5O)C4O)C3O)C2O)C1O)C(O)CO,,254 µg/mL
N#CSc1ccc2nc(NC(=O)CN3C(=O)S/C(=C/c4ccc(Cl)cc4)C3=O)sc2c1,MTT,>100 µM
COc1ccc(/C=C/C(=O)c2c(O)c3c(C)ccc(C(C)C)c3oc2=O)cc1,,82.7 µg/mL
CCC(O)(c1cccc(OC)c1)c1c(C)c(=O)[nH]c(=O)n1COCc1ccccc1,MTT,109 µM
Cc1cn([C@H]2C[C@H](N=[N+]=[N-])[C@@H](CO)O2)c(=O)[nH]c1=O,MTT,7.8 µg/mL
Cc1ccc(/C=C2/SC(=O)N(CC(=O)Nc3nc4ccc(SC#N)cc4s3)C2=O)cc1,MTT,50 µM
Oc1ccc(-c2nnc3sc(-c4ccco4)nn23)c(Cl)c1Cl,MTT,27.2 µg/mL
CC1=C(C(=O)Nc2cc(Cl)ccc2Cl)C2=NN=C(N)C2C(=O)N1,MTT,48.8 µg/mL
N#Cc1ccc(Nc2nc(Oc3c(Cl)cccc3Cl)ncc2NC(=O)C(F)(F)F)cc1,MTT,190 µM
Cc1ccc(C(C)C)c2oc(=O)c(C(=O)/C=C/c3ccc(N(C)C)cc3)c(O)c12,,106 µg/mL
N#C[C@]1(CO)O[C@@H](n2cnc3c(N)nc(N)nc32)C[C@@H]1O,,>0.034 µM
Nc1cc2c(=O)c(C(=O)O)cn(C3CC3)c2cc1N1CCN(c2cnccn2)CC1,MTT,49.2 µM
Cc1cn([C@@H]2O[C@H](CO[Si](C)(C)C(C)(C)C)[C@@H](O)[C@H]2O[Si](C)(C)C(C)(C)C)c(=O)[nH]c1=O,,5.7 µg/mL

Repeating the final 6 entries:

compound,read by,result
CC1=C(C(=O)Nc2cc(Cl)ccc2Cl)C2=NN=C(N)C2C(=O)N1,MTT,48.8 µg/mL
N#Cc1ccc(Nc2nc(Oc3c(Cl)cccc3Cl)ncc2NC(=O)C(F)(F)F)cc1,MTT,190 µM
Cc1ccc(C(C)C)c2oc(=O)c(C(=O)/C=C/c3ccc(N(C)C)cc3)c(O)c12,,106 µg/mL
N#C[C@]1(CO)O[C@@H](n2cnc3c(N)nc(N)nc32)C[C@@H]1O,,>0.034 µM
Nc1cc2c(=O)c(C(=O)O)cn(C3CC3)c2cc1N1CCN(c2cnccn2)CC1,MTT,49.2 µM
Cc1cn([C@@H]2O[C@H](CO[Si](C)(C)C(C)(C)C)[C@@H](O)[C@H]2O[Si](C)(C)C(C)(C)C)c(=O)[nH]c1=O,,5.7 µg/mL

CCn: concentration that lowers growth or viability of the cells by n%. Blank or dashed fields: not listed here.